Data source: PubChem BioAssay AID624099 (ICCB-Longwood, 2012)
In all, the deposit lists about 21,000 reagents; shown is a random part of them. Over the whole deposit, 497 (2.4%) were called active. 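Higher z means weaker E2 silencing; only reporter increases were scored, and knock-downs that hurt cell survival may mask genuine repressor factors.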 The numbers tell different reagents against one gene apart. No sequences are given here.

- Assay: 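Human genes that papillomavirus E2 requires to repress the HPV18 LCR promoter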 (primary screen)
- System: human C33A cervical carcinoma cells (HPV-negative) stably expressing BPV1 E2 and an HPV18 LCR luciferase reporter
- Reagents: siRNA pool against human genes, 40 nM
- Duration: 72 h
- Detection: 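HPV18 LCR reporter light per well, converted to plate-wise z-scores that exclude control wells, and averaged over triplicate plates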
- Direction: mean z-score and z-score: higher = stronger reporter signal, weaker E2 silencing
- Hit rule: 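Hit if mean z-score reaches 2 and two or more of three replicate z-scores also reach 2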

target	pool no.	mean z-score	z-score, replicate A	z-score, replicate B	z-score, replicate C	Call
FLJ46365 (retired record)	1	-0.58	-0.47	-0.6	-0.68	inactive
SMIM34 (small integral membrane protein 34)	1	-1.35	-1.19	-1.45	-1.41	inactive
PXMP4 (peroxisomal membrane protein 4)	1	0.42	0.24	0.8	0.21	inactive
STAB2 (stabilin 2)	1	0.83	0.75	0.84	0.9	inactive
XKRYP7 (XK related, Y-linked pseudogene 7)	1	-0.81	-0.71	-0.62	-1.11	inactive
G6PC3 (glucose-6-phosphatase catalytic subunit 3)	1	-0.03	-0.18	-0.05	0.14	inactive
PSKH2 (protein serine kinase H2)	1	-1.62	-1.55	-1.44	-1.86	inactive
LRRC8E (leucine rich repeat containing 8 VRAC subunit E)	1	-0.68	-0.7	-0.77	-0.58	inactive
SLC33A1	1	0.71	0.75	0.71	0.65	inactive
APOBEC3H (apolipoprotein B mRNA editing enzyme catalytic subunit 3H)	1	1.46	0.75	1.84	1.79	inactive
ZCCHC17 (zinc finger CCHC-type containing 17)	1	-0.72	-0.52	-1.06	-0.57	inactive
SLC39A14	1	-0.47	-0.41	-0.49	-0.5	inactive
CD36 (CD36 molecule (CD36 blood group))	1	-0.13	-0.01	-0.21	-0.17	inactive
PTRH1 (peptidyl-tRNA hydrolase 1 homolog)	1	-0.75	-0.94	-0.51	-0.8	inactive
ZBTB5 (zinc finger and BTB domain containing 5)	1	0.66	0.46	0.65	0.87	inactive
ATP6AP1L (ATPase H+ transporting accessory protein 1 like (pseudogene))	1	-0.57	-0.64	-0.65	-0.41	inactive
LINC01996 (long independently transcribed non-coding RNA 1996)	1	0.18	0.37	-0.17	0.32	inactive
C3orf22 (chromosome 3 open reading frame 22)	1	-1.61	-1.36	-1.77	-1.7	inactive
DOK4 (docking protein 4)	1	1.15	0.97	1.37	1.11	inactive
PPP1R3C (protein phosphatase 1 regulatory subunit 3C)	1	-0.74	-0.66	-0.93	-0.62	inactive
TMEM151A (transmembrane protein 151A)	1	0.45	0.49	0.39	0.47	inactive
ENO2 (enolase 2)	1	1.73	1.58	1.77	1.84	inactive
ZMYM6 (zinc finger MYM-type containing 6)	1	0.12	0.27	0.11	-0.02	inactive
ZMYM6 (zinc finger MYM-type containing 6)	2	-2.36	-2.63	-2.48	-1.97	inactive

Targets above whose target name starts with C or c:
target	pool no.	mean z-score	z-score, replicate A	z-score, replicate B	z-score, replicate C	Call
CD36 (CD36 molecule (CD36 blood group))	1	-0.13	-0.01	-0.21	-0.17	inactive
C3orf22 (chromosome 3 open reading frame 22)	1	-1.61	-1.36	-1.77	-1.7	inactive
